Data: publication PMC3203990 (The FEBS journal, 2011)

Test system: O=[N+]([O-])c1ccc(OP(=O)(O)O)cc1
Assay: purified protein
Conditions: pH 5.5; 25.0 °C

“FtCCAP (Francisella tularensis class C acid phosphatase) (Francisella tularensis subsp. tularensis SCHU S4)” was tested, and the Km was 560 ± 40 µM.
